Measured values from several laboratories, pooled; numbers as filed in NIAID ChemDB.

Common to all: whole-cell or culture tests; species: Candida albicans

An empty or dashed field is not shown.

smiles,conditions,strain,endpoint,read by,result
C[C@H]1[C@H](O)[C@@H](C)/C=C/C=C/C=C/C=C/C=C/C=C/C=C/[C@H](O[C@@H]2O[C@H](C)[C@@H](O)[C@H](N)[C@@H]2O)C[C@@H]2O[C@](O)(C[C@@H](O)C[C@@H](O)CC[C@H](O)[C@@H](O)C[C@@H](O)CC(=O)O[C@H]1C)C[C@H](O)[C@H]2C(=O)O,,TIMM1768,MIC,,0.39 µg/mL
NC(=S)CSc1ccnc(C(N)=S)c1,,44859,MIC,,>1000 µM
COc1cncc(C(N)=NN(C)S(=O)(=O)c2ccccc2)n1,,,MIC,broth dilution,>256 µg/mL
O=C1C(Sc2ccc(Br)cc2)=C(Sc2ccc(Br)cc2)C(=O)c2ccccc21,,,EC50,,>0.2 µg/mL
O=C(Cc1ccccc1)Nc1ccc2oc(-c3ccccc3)nc2c1,,RSKK 628,MIC,,50 µg/mL
CC[C@@H]([C@H](C)O)n1ncn(-c2ccc(N3CCN(c4ccc(OC[C@@H]5CO[C@@](Cn6cncn6)(c6ccc(F)cc6F)C5)cc4)CC3)cc2)c1=O,,Isolate 3474,MIC,,0.06 µg/mL
O=C(NCCc1ccccc1)c1ccc[nH]c1=S,,,MIC,,5 µg/mL
CC(N1CCN(c2ccc(-n3cnn(Cc4ccc(OC(F)(F)F)cc4)c3=O)cc2F)CC1)C(O)(Cn1cncn1)c1ccc(F)cc1F,,Y0109,MIC,,<0.048 µg/mL
CC(c1cccs1)C(O)(Cn1cncn1)c1ccc(Cl)cc1Cl,,,MIC80,,8 µg/mL
O=C(NCc1ccccc1)c1ccc[nH]c1=S,,,MIC,,10 µg/mL
CC(=O)OCC1C=C(c2cccc(Cl)c2)C(=O)O1,,25 isolates,MIC50,,2 µg/mL
CCc1ccc(C(=O)Nc2ccc3oc(-c4ccccc4)nc3c2)cc1,,RSKK 628,MIC,,100 µg/mL
S=c1c2cccnc2sn1CCc1ccccc1,,,MIC,,30 µg/mL
CCn1c(-c2cc3ccccc3cc2C(=O)OC)n[nH]c1=S,,ATCC 2091,MIC,,250 µg/mL
O=C1C(Nc2ccc(Cl)cc2)=C(S(=O)c2ccccc2)C(=O)c2ccccc21,,,EC50,,>0.2 µg/mL
CC(Sc1ccccc1Cn1ccnc1)c1ccc(Cl)c(Cl)c1,,,MIC,,>100 µg/mL
CCCCCCCCCCCC[n+]1cccc2ccccc21,48 h,ATCC 44859,MIC,broth dilution,0.01562 µg/mL
N#Cc1c(-c2ccccc2)cc(=O)n2c1oc1ccccc12,,,MIC,,<200 µg/mL
NC(=NC1CCCC1)c1ccc(-c2ccc(-c3ccc(C(N)=NC4CCCC4)cc3)o2)cc1,,Isolate CA1548,MIC,,12.5 µg/mL
N#CC(C(=S)NCc1ccccc1)c1nc2ccccc2o1,,,MIC,,>200 µg/mL
COc1ccc(C(=O)Nc2ccc3oc(-c4ccccc4)nc3c2)cc1OC,,RSKK 628,MIC,,25 µg/mL
CC1=C(CCO)C(=O)C(O)=C2C1=CC(=O)[C@H]1C(C)(C)CCC[C@]21C,,90028,MIC,,0.19 µg/mL
O=C(CSc1nnc(-c2ccc(N=Cc3cccs3)cc2)o1)Nc1ccc(Cl)c(Cl)c1,,MTCC 227,MIC,broth dilution,1000 µg/mL
C[n+]1cnc(-c2cnccn2)[nH]1,,,MIC,broth dilution,>256 µg/mL
C[C@H]1[C@H](O)[C@@H](C)/C=C/C=C/C=C/C=C/C=C/C=C/C=C/[C@H](O[C@@H]2O[C@H](C)[C@@H](O)[C@H](N)[C@@H]2O)C[C@@H]2O[C@](O)(C[C@@H](O)C[C@@H](O)CC[C@H](O)[C@@H](O)C[C@@H](O)CC(=O)O[C@H]1C)C[C@H](O)[C@H]2C(=O)O,,ATCC 10231,MFC,broth dilution,1 µg/mL
N/C(=N\N=C(/N)c1cnccn1)c1cnccn1,,,MIC,broth dilution,>256 µg/mL
O=S(c1ccccc1)c1c(Sc2ccc(Br)cc2)c(O)c2ccccc2c1O,,,EC50,,>0.2 µg/mL
Oc1ccc2cc1Oc1ccc(cc1)CCc1ccc(c(O)c1)-c1c(O)cccc1CC2,,YEM30,MIC80,broth dilution,16 µg/mL
CC(N1CCN(c2ccc(-n3cnn(Cc4ccc(C(F)(F)F)cc4)c3=O)cc2)CC1)C(O)(Cn1cncn1)c1ccc(F)cc1F,,Y0109,MIC,,<0.048 µg/mL
Oc1cc2ccccc2cc1-c1nnc(Nc2ccc(F)cc2)s1,,ATCC 2091,MIC,,125 µg/mL
O=C1C(Nc2ccc([N+](=O)[O-])cc2)=C(S(=O)c2ccccc2)C(=O)c2ccccc21,,,EC50,,>0.2 µg/mL
C[C@H]1[C@H](O)[C@@H](C)/C=C/C=C/C=C/C=C/C=C/C=C/C=C/[C@H](O[C@@H]2O[C@H](C)[C@@H](O)[C@H](N)[C@@H]2O)C[C@@H]2O[C@](O)(C[C@@H](O)C[C@@H](O)CC[C@H](O)[C@@H](O)C[C@@H](O)CC(=O)O[C@H]1C)C[C@H](O)[C@H]2C(=O)O,,R89-214,MIC,,1 µg/mL
N#CC1=C(N)N2C(=C(C#N)C1c1ccccc1)Oc1ccccc12,,,MIC,,>200 µg/mL
NC(=S)CSc1cc(C(N)=S)ccn1,,44859,MIC,,>1000 µM
Oc1ccc(/C=C/c2ccc(Cl)cc2)cc1,,PCM 1409 PZH,MIC,,25 µg/mL
CN(N=C(N)c1cnccn1)S(C)(=O)=O,,,MIC,broth dilution,>256 µg/mL
Cc1ccc(NC(=O)CSc2nnc(-c3ccc(N=Cc4cccs4)cc3)o2)c(C)c1,,MTCC 227,MIC,broth dilution,1000 µg/mL
CC(=O)OCC1C=C(c2ccc(Cl)c(Cl)c2)C(=O)O1,,9 isolates fluconazole-resistant,MIC90,,2 µg/mL
Clc1cccc(CSc2ccccc2Cn2ccnc2)c1,,,MIC,,50 µg/mL
CCc1ccc(-c2nc3cc(NC(=O)Cc4ccc(Cl)cc4)ccc3o2)cc1,,RSKK 628,MIC,,50 µg/mL
Oc1ccccc1/C=C/c1ccc(Cl)cc1,,PCM 1409 PZH,MIC,,100 µg/mL
NC(=S)c1cc(N2CCCCC2)ccn1,,44859,MIC,,500 µM
COc1ccc(C(=O)Nc2ccc3oc(-c4ccccc4)nc3c2)c(OC)c1,,RSKK 628,MIC,,25 µg/mL
CCCCCNC(=S)c1ccc[nH]c1=S,,,MIC,,30 µg/mL
CCOC(=O)c1cc(C#N)c2oc3ccccc3n2c1=O,,,MIC,,>200 µg/mL
O=C(NNC(=S)Nc1ccc(F)cc1)c1cc2ccccc2cc1O,,ATCC 2091,MIC,,250 µg/mL
S=c1c2cccnc2sn1Cc1ccccc1,,,MIC,,20 µg/mL
C[C@H]1N(C(=O)c2ccc(C(F)(F)F)cc2)C[C@@H](O)O[C@@]1(Cn1cncn1)c1ccc(F)cc1F,,Isolate 5,MIC,,16 µg/mL
S=C(NCCc1ccccc1)c1ccc[nH]c1=S,,,MIC,,30 µg/mL
CCCCCOc1ccc(-c2ccc(-c3ccc(C(=O)N[C@H]4C[C@@H](O)[C@@H](O)NC(=O)[C@@H]5[C@@H](O)[C@@H](C)CN5C(=O)[C@H]([C@H](C)O)NC(=O)[C@H]([C@H](O)[C@@H](O)c5ccc(O)cc5)NC(=O)[C@@H]5C[C@@H](O)CN5C(=O)[C@H]([C@H](C)O)NC4=O)cc3)cc2)cc1,,Y171,MIC,,0.16 µg/mL
COc1cccc(NC(=O)CSc2nnc(-c3ccc(N=Cc4cccs4)cc3)o2)c1,,MTCC 227,MIC,broth dilution,125 µg/mL
c1ccc(CCN=c2ssc3ncccc23)cc1,,,MIC,,30 µg/mL
COc1ccc(NC(=O)CSc2nnc(-c3ccc(N=Cc4cccs4)cc3)o2)cc1,,MTCC 227,MIC,broth dilution,500 µg/mL
COc1ccc(Sc2c(S(=O)c3ccccc3)c(O)c3ccccc3c2O)cc1,,,EC50,,>0.2 µg/mL

Repeating the final 5 entries:

smiles	conditions	strain	endpoint	read by	result
CCCCCOc1ccc(-c2ccc(-c3ccc(C(=O)N[C@H]4C[C@@H](O)[C@@H](O)NC(=O)[C@@H]5[C@@H](O)[C@@H](C)CN5C(=O)[C@H]([C@H](C)O)NC(=O)[C@H]([C@H](O)[C@@H](O)c5ccc(O)cc5)NC(=O)[C@@H]5C[C@@H](O)CN5C(=O)[C@H]([C@H](C)O)NC4=O)cc3)cc2)cc1		Y171	MIC		0.16 µg/mL
COc1cccc(NC(=O)CSc2nnc(-c3ccc(N=Cc4cccs4)cc3)o2)c1		MTCC 227	MIC	broth dilution	125 µg/mL
c1ccc(CCN=c2ssc3ncccc23)cc1			MIC		30 µg/mL
COc1ccc(NC(=O)CSc2nnc(-c3ccc(N=Cc4cccs4)cc3)o2)cc1		MTCC 227	MIC	broth dilution	500 µg/mL
COc1ccc(Sc2c(S(=O)c3ccccc3)c(O)c3ccccc3c2O)cc1			EC50		>0.2 µg/mL

Conditions beyond the fields shown may differ between rows. ECn is the concentration giving n% inhibition of infection, replication or growth. A number after MIC or MFC names an inhibition level or a share of isolates.